Consider one substance from patent publication US20250304937A1.

This assay concerns the target denosumab (XGEVA) (human). In words: cell-based or functional assay.

“pCART124 (IdeS control with N terminal methionine and histidine tag) (enzyme)” showed a 1st IgG2 (XGEVA) heavy chain IgG to scIgG, Conc. of enzyme (ng/ml), gel of 14 ng/mL; a 1st IgG heavy chain IgG to scIgG, Conc. of enzyme (ng/ml), gel of 14 ng/mL; a 2nd IgG2 (XGEVA) heavy chain scIgG to F(ab')2, Conc. of enzyme (ng/ml), gel of 1100 ng/mL; an EC50 (ng/ml) in cleavage of IgG2 (XGEVA), potency ELISA of 199 ng/mL.
